One may read the stoichiometry N as a count of units in the complex or per binding partner.

Drawing on PMC8092228 (mBio, 2021), this text covers stoichiometry N for one substance.

The target in this assay is LOV-PAS construct of Brucella abortus LOV-HK (residues 15 to 273) (Brucella abortus). Nature of the assay: SEC with static light scattering (SEC-SLS).

Regarding “LOV-PAS construct of Brucella abortus LOV-HK (residues 15 to 273) (domain or fragment)”, the stoichiometry N came out at 2.
